Measured values from several laboratories, pooled; numbers as filed in NIAID ChemDB.

Common to all: toxicity to cultured cells; cell line: VERO; measure: CC50

Rows are shuffled and stem from different studies. CCn is the concentration with n% toxicity to the cells. An empty or dashed field is not shown.

compound | method | result
CCN1C[C@]2(COC)CC[C@H](OC)[C@]34C5CC6[C@H](OC)C5[C@](O)(C[C@@H]6OC)[C@@](O)(C13)[C@@H](OC)[C@H]24 | - | 64 µg/mL
O=c1[nH]c(=O)n([C@H]2C[C@H](O)[C@@H](COP3(=O)OCc4cc5ccccc5cc4O3)O2)cc1/C=C/Br | - | 56.8 µg/mL
Cc1cn2c(C(=O)NCc3ccc(N4CCN(c5ccc(C(F)(F)F)cn5)CC4)c(F)c3)c(C)nc2s1 | fluorescence | >100 µM
CC[C@@H](C(C)C)[C@H](O)[C@@H](O)[C@@H](C)[C@H]1CC[C@H]2[C@@H]3CC(=O)[C@@]4(F)C[C@@H](O)CC[C@]4(C)[C@H]3CC[C@]12C | MTT | 160 µM
Cc1cccc2c1OP(=O)(OC[C@H]1O[C@@H](n3cc(/C=C/Br)c(=O)[nH]c3=O)C[C@@H]1OC(=O)[C@@H](N)C(C)C)OC2 | - | 87 µg/mL
Cc1cn2c(C(=O)NCc3ccc(Oc4ccc(F)cc4)cc3)c(C)nc2s1 | fluorescence | 13.9 µM
Cc1c2cnccc2c(C)c2c1c1ccccc1n2CCCCCCNCc1ccccc1 | - | 0.69 µg/mL
CO/N=C1/C(=O)N(CCn2cc(CN3CCN(c4cc5c(cc4F)c(=O)c(C(=O)O)cn5C4CC4)CC3)nn2)c2ccc(Cl)cc21 | MTT | 38.57 µM
O=C1C=CN([C@@H]2O[C@H](CO)[C@@H](O)[C@H]2O)C(=O)C1 | - | 683 µg/mL
C/C(=N\NC(=O)c1ccncc1)C(F)(F)F | - | >62.5 µg/mL
Cc1cn([C@H]2CC(N=[N+]=[N-])[C@@H](COP(=O)(OCCC#N)OC[C@H]3CC[C@@H](n4cnc5c(=O)[nH]cnc54)O3)O2)c(=O)[nH]c1=O | - | >200 µM
COc1ccc(-c2cn(C)cc2[N+](=O)[O-])c(Cl)c1 | - | 2 µg/mL
O=C(Cc1nn(Cc2ccc(Br)cc2F)c(=O)c2ccccc12)N1CCN(C(=O)c2ccc3c(c2)OCO3)CC1 | MTT | 103 µM
CCn1cc(C(N)=O)c(=O)c2ccc(-c3cc(C)no3)cc21 | - | >100 µg/mL
Nc1ncnc2c1ncn2CCOCP(=O)(O)O | MTT | >100 µM
CC=CCOc1cc(NC(=S)OC(C)C)ccc1Cl | - | >10 µg/mL
O=c1nc2oc(-c3ccccc3)cc2cn1COCCO | - | 63.1 µM
CO/N=C1/C(=O)N(CCn2cc(CN3CCN(c4cc5c(cc4F)c(=O)c(C(=O)O)cn5C4CC4)CC3)nn2)c2ccc(F)cc21 | MTT | 4.94 µM
CC[C@H](/C=C/[C@@H](C)[C@H]1CC[C@H]2[C@@H]3CC(=O)[C@@]4(F)CC=CC[C@]4(C)[C@H]3CC[C@]12C)C(C)C | MTT | 935 µM
O=c1[nH]nc2c3cccc4cccc(c5ccc(O)c1c52)c43 | - | 3.8 µg/mL
Cc1cn2c(C(=O)NCc3cccc(C(F)(F)F)c3)c(C)nc2s1 | fluorescence | 59 µM
Nc1nccc2c1ncn2[C@@H]1C=C(CO)[C@@H](O)[C@H]1O | - | 100 µg/mL
CO[C@H]1/C=C/O[C@@]2(C)Oc3c(C)c(O)c4c(O)c(c(/C=N/N5CCN(C)CC5)c(O)c4c3C2=O)NC(=O)/C(C)=C\C=C\[C@H](C)[C@H](O)[C@@H](C)[C@@H](O)[C@@H](C)[C@H](OC(C)=O)[C@@H]1C | MTT | >75.94 µM
NC(=O)c1c(O)c2ccc(-c3ccncc3)cc2n(-c2ccc(F)cc2)c1=O | - | >100 µg/mL
CC[C@@H](C(C)C)[C@H](O)[C@@H](O)[C@@H](C)[C@H]1CC[C@H]2[C@@H]3CC(=O)[C@@]4(O)C[C@@H](O)CC[C@]4(C)[C@H]3CC[C@]12C | MTT | 1044 µM
CCOC(=O)P(=O)(O)OC[C@H]1S[C@@H](n2cc(CC)c(=O)[nH]c2=O)C[C@@H]1O | - | >1200 µM
Nc1cc2c(ncn2[C@@H]2O[C@H](CO)[C@@H](O)[C@H]2O)c(=O)[nH]1 | - | 32 µg/mL
CC(C)(C)c1ccc(-n2cc(C(N)=O)c(=O)c3ccc(-c4ccncc4)cc32)cc1 | - | >25 µg/mL
CCOC(=O)c1nc2nc(Cl)c(Cl)nc2[nH]1 | - | 12.45 µg/mL
CCOC(=O)c1cn(C)cc1-c1ccc(OC)cc1 | - | 4 µg/mL
Cc1cccc2c1OP(=O)(OC[C@H]1O[C@@H](n3cc(/C=C/Br)c(=O)[nH]c3=O)C[C@@H]1OC(=O)C(C)C)OC2 | - | 32.2 µg/mL
CCn1cc(C#N)c(=O)c2ccc(-c3ccncc3)cc21 | - | >100 µg/mL
Cc1cc(=O)c2c([nH]1)c1c(c3[nH]c(C)cc(=O)c32)Oc2ccccc2O1 | - | 56.6 µg/mL
Nc1ncn([C@@H]2O[C@H](CO)[C@@H](O)[C@H]2O)c(=O)n1 | neutral red | 565 µg/mL
CC[C@@H](C(C)C)[C@@H](O)[C@H](O)[C@@H](C)[C@H]1CC[C@H]2[C@@H]3CC(=O)[C@H]4C[C@@H](OC(C)=O)CC[C@]4(C)[C@H]3CC[C@]12C | MTT | 238 µM
O=c1[nH]c(=O)n([C@@H]2C=C[C@H](CO)O2)cc1F | MTT | 32 µM
Cc1cn([C@H]2C[C@H](N=[N+]=[N-])[C@@H](COP(=O)(O)OC[C@H]3CC[C@@H](n4cnc5c(N)ncnc54)O3)O2)c(=O)[nH]c1=O | - | >200 µM
CC(=O)c1cn(CC=C(CO)CO)c(=O)[nH]c1=O | - | >100 µM
CC(C)Cn1c[n+](Cc2ccc([N+](=O)[O-])cc2)c2c1C(=O)c1ccccc1C2=O | - | 29.3 µg/mL
O=c1cnn([C@@H]2O[C@H](CO)[C@@H](O)[C@H]2O)c(=O)[nH]1 | neutral red | 58 µg/mL
O=c1[nH]cnc2c1ncn2[C@H]1CC[C@@H](CO)O1 | - | >100 µM
CC1(C)OC(=O)C(=Cc2ccc([N+](=O)[O-])s2)C(=O)O1 | - | 4.17 µg/mL
CO[C@H]1/C=C/O[C@@]2(C)Oc3c(C)c(O)c4c(O)c(c(/C=N/N5CCN(C)CC5)c(O)c4c3C2=O)NC(=O)/C(C)=C\C=C\[C@H](C)[C@H](O)[C@@H](C)[C@@H](O)[C@@H](C)[C@H](OC(C)=O)[C@@H]1C | absorbance | >100 µM
Nc1nc2c(ncn2[C@@H]2OC[C@](CO)(CCP(=O)(O)O)[C@@H]2F)c(=O)[nH]1 | MTT | >100 µM
O=C(O)c1cn(C2CC2)c2cc(N3CCNCC3)c(F)cc2c1=O | - | >62.5 µg/mL
CCOC(=O)c1c[nH]cc1-c1ccc(Cl)cc1 | - | 4 µg/mL
C[C@@H](O)C1=C[C@@H](n2cnc3c(N)ncnc32)[C@H](O)[C@@H]1O | MTT / neutral red | 6.7 µg/mL
Cc1cn([C@H]2C[C@H](N=[N+]=[N-])[C@@H](CO)O2)c(=O)[nH]c1=O | - | 29 µM
CCCCCC(=O)O[C@H]1C[C@H](n2cc(/C=C/Br)c(=O)[nH]c2=O)O[C@@H]1COP1(=O)OCc2cccc(C)c2O1 | - | 13.8 µg/mL
COc1ccc2c3c([nH]c2c1)C(C)=NCC3 | MTT | 33.33 µg/mL
O=C(N/N=C/c1ccc2c(c1)OCO2)c1ccncc1 | - | >10 µg/mL
CCCOc1ccc(N(C)c2cc(C)nc3ccc(Cl)cc23)cc1 | - | <0.2 µM
O=c1cnn([C@@H]2O[C@H](CO)[C@@H](O)[C@H]2O)c(=O)[nH]1 | - | 85 µg/mL
CCCCCCCCc1cc2cn(COCCO)c(=O)nc2o1 | - | 4.97 µM
NC(=O)c1c(N)n(-c2ccc(F)cc2)c2cc(-c3ccncc3)ccc2c1=O | - | >100 µg/mL
CCN(CC)CCNc1ccc2nc(C)n3c4ccc(OC)cc4c(=O)c1c23.Cl | - | 0.29 µg/mL
Cc1cn2c(C(=O)NCc3ccc(N4CCC(c5ccc(OC(F)(F)F)cc5)CC4)cc3)c(C)nc2s1 | fluorescence | >100 µM
CCOC(=O)c1cn(Cc2ccccc2)cc1-c1ccc(OC)cc1 | - | 8 µg/mL
Cc1ccc(C(=O)Nc2ccc(S(=O)(=O)O)c3cc(S(=O)(=O)O)cc(S(=O)(=O)O)c23)cc1NC(=O)c1cccc(NC(=O)Nc2cccc(C(=O)Nc3cc(C(=O)Nc4ccc(S(=O)(=O)O)c5cc(S(=O)(=O)O)cc(S(=O)(=O)O)c45)ccc3C)c2)c1 | neutral red | 152 µg/mL
Cc1cc(CCN)c(C)c2c1oc1ccccc12 | - | 1.27 µg/mL
Cc1cn([C@H]2C[C@H](N=[N+]=[N-])[C@@H](COP(=O)(O)OC[C@@H]3CC[C@H](n4cnc5c(=O)[nH]cnc54)O3)O2)c(=O)[nH]c1=O | - | >100 µM
O=c1[nH]cnc2c([C@@H]3O[C@H](CO)[C@@H](O)[C@H]3O)[nH]nc12 | neutral red | 43 µg/mL
CC[C@@H](C(C)C)[C@H](O)[C@@H](O)[C@@H](C)[C@H]1CC[C@H]2[C@@H]3CC(=O)[C@H]4C[C@@H](OC(C)=O)CC[C@]4(C)[C@H]3CC[C@]12C | MTT | 226 µM
O=[N+]([O-])c1c[nH]cc1-c1ccc(Cl)c(Cl)c1 | - | 2 µg/mL
O=c1[nH]c(=O)n([C@@H]2O[C@H](CO)[C@@H](O)[C@H]2O)[nH]c1=S | neutral red | 761 µg/mL
C=CC(O)C#CC#CC(O)/C=C\CCCCCCCCOC(C)=O | - | >120 µg/mL
CCN1C[C@]2(COC)CC[C@H](O)[C@]34C1[C@@](O)([C@@H](OC)[C@H]23)[C@@]1(O)C[C@H](OC)C2C[C@@H]4[C@@H]1[C@H]2O | - | 64 µg/mL
S=C(NCCNC(=S)[S][Sn]([c]1ccccc1)([c]1ccccc1)[c]1ccccc1)[S][Sn]([c]1ccccc1)([c]1ccccc1)[c]1ccccc1 | - | <0.41 µg/mL
CCCC(=O)OC[C@@H]1C=C[C@H](n2cc(F)c(N)nc2=O)O1 | - | >100 µM
COc1ccc(N2CCN(C(=O)Cc3nn(Cc4ccc(Br)cc4F)c(=O)c4ccccc34)CC2)cc1 | MTT | >111 µM
CCCCCCC/C=C\C(O)C#CC#CC(O)CCOC | - | >120 µg/mL
CCn1cc(C(N)=O)c(=O)c2ccc(-c3cnc(C)s3)cc21 | - | >100 µg/mL
CC(C)=CCc1c(O)cc(O)c2c1O[C@H](c1ccc(O)cc1O)CC2=O | - | 15.5 µg/mL
Nc1cccc2c1[nH]c(=O)c1ccccc12 | - | 14.17 µg/mL
O=C[C@@H](CO)O[C@H](C=O)n1ccc(=O)[nH]c1=O | - | 250 µg/mL
CCN(CC)c1ccc2nc3ccc(N=Nc4c(O)ccc5ccccc45)cc3[n+](-c3ccccc3)c2c1.[Cl-] | - | 0.9 µg/mL
CCCCCc1ccc(-c2cc3cn(COCCO)c(=O)nc3o2)cc1 | - | 4.4 µM
COc1cccc2oc([N+](=O)[O-])cc12 | - | 9.28 µg/mL
O=c1[nH]c(=O)n([C@H]2C=C[C@@H](CO)O2)cc1F | - | 7.9 µM
CC[C@@H](C(C)C)[C@H](O)[C@@H](O)[C@@H](C)[C@H]1CC[C@H]2[C@@H]3CC(=O)C4C[C@@H](F)CC[C@]4(C)[C@H]3CC[C@]12C | MTT | 43 µM
O=C(Nc1ccc(C2=NCC(O)CN2)cc1)c1ccc(C(=O)Nc2ccc(C3=NCC(O)CN3)cc2)cc1 | - | >12.5 µg/mL
CC[C@@H](C(C)C)[C@@H](O)[C@H](O)[C@@H](C)[C@H]1CC[C@H]2[C@@H]3CC(=O)[C@@]4(O)C[C@@H](Br)CC[C@]4(C)[C@H]3CC[C@]12C | MTT | 36 µM
O=C(N/N=C(\c1nc2ccc([N+](=O)[O-])cc2[nH]c1=O)C(O)c1ccc([N+](=O)[O-])cc1)c1ccncc1 | - | >62.5 µg/mL
O=C1C(=O)N(CCn2cc(CN3CCN(c4cc5c(cc4F)c(=O)c(C(=O)O)cn5C4CC4)CC3)nn2)c2ccc(F)cc21 | MTT | 41.45 µM
C1CCNCC1.S=C(S)N1CCCCC1 | - | 8.6 µg/mL
COc1ccc(-c2c[nH]cc2[N+](=O)[O-])c(Cl)c1 | - | 2 µg/mL

6 of the rows above, restated:

compound	method	result
COc1ccc(-c2c[nH]cc2[N+](=O)[O-])c(Cl)c1	-	2 µg/mL
S=C(NCCNC(=S)[S][Sn]([c]1ccccc1)([c]1ccccc1)[c]1ccccc1)[S][Sn]([c]1ccccc1)([c]1ccccc1)[c]1ccccc1	-	<0.41 µg/mL
CC[C@@H](C(C)C)[C@H](O)[C@@H](O)[C@@H](C)[C@H]1CC[C@H]2[C@@H]3CC(=O)[C@H]4C[C@@H](OC(C)=O)CC[C@]4(C)[C@H]3CC[C@]12C	MTT	226 µM
Cc1cccc2c1OP(=O)(OC[C@H]1O[C@@H](n3cc(/C=C/Br)c(=O)[nH]c3=O)C[C@@H]1OC(=O)C(C)C)OC2	-	32.2 µg/mL
Cc1cccc2c1OP(=O)(OC[C@H]1O[C@@H](n3cc(/C=C/Br)c(=O)[nH]c3=O)C[C@@H]1OC(=O)[C@@H](N)C(C)C)OC2	-	87 µg/mL
CCN(CC)c1ccc2nc3ccc(N=Nc4c(O)ccc5ccccc45)cc3[n+](-c3ccccc3)c2c1.[Cl-]	-	0.9 µg/mL